Patent publication US20120100555A1, “Synthesis And Use Of Fluorophore-Tagged Antimalarials” (priority 2009, published 2012)

System: P. falciparum-infected red blood cells
Test: Confocal microscopy, cellular localization of CM-CQ
Type: cell-based, Plasmodium falciparum

CCN(CCCCNc1ccnc2cc(Cl)ccc12)CC(=O)NCCNC(=O)Cc1cc(=O)oc2cc(N(C)C)ccc12 [CM-CQ]
accumulation / localization within the parasite (30 nM): No accumulation | accumulation / localization within the parasite (300 nM): localizes in the hemazoin-containing food vacuole | accumulation / localization within the parasite (concentrations exceeding 3 μM): non-specific
